Compound potency records, mixed from different reports. Data source: NIAID ChemDB in PubChem.

Shared fields: tests in culture; organism: Candida albicans

ECn is the concentration giving n% inhibition of infection, replication or growth. Blank or dashed fields: not listed here. Conditions beyond the fields shown may differ between rows.

smiles	strain	endpoint	value
Fc1cccc(CO/N=C2/c3ccccc3OCC2n2cncn2)c1	ATCC 10231	MFC	>64 µg/mL
COC1CC2CCC(C)C(O)(O2)C(O)C(O)N2CCCCC2C(=O)OC(C(C)CC2CCC(O)C(OC)C2)CC(=O)C(C)/C=C(\C)C(O)C(OC)C(=O)C(C)CC(C)/C=C/C=C/C=C/1C	WILD TYPE	MFC	12.5 µg/mL
CCCCCCCCCOC[n+]1cccc(NCNc2ccc[n+](COCCCCCCCCC)c2)c1	ATCC 10231	MIC	13.5 µM
O=C(OCC1COC(Cn2ccnc2)(c2ccc(-c3ccccc3)cc2)O1)c1ccccc1	44 strains	EC50	16 µg/mL
CCCCCOc1ccc(-c2ccc(-c3ccc(C(=O)N[C@H]4CCCNC(=O)[C@@H]5C[C@H](N)CN5C(=O)[C@H](CCCN)NC(=O)C(CCc5ccc(O)cc5)NC(=O)[C@@H]5C[C@@H](O)CN5C(=O)[C@H]([C@@H](C)O)NC4=O)cc3)cc2)cc1	ATCC 38247	MIC	0.39 µg/mL
Clc1ccc2c(c1)OCC(n1cncn1)/C2=N\OCc1ccc(Cl)c(Cl)c1	ATCC 10231	MIC	16 µg/mL
CCCCCCCC(=O)N[C@H]1C[C@H]2C(=O)NCCC[C@H](NC(=O)c3ccc(-c4ccc(-c5ccc(OCCCCC)cc5)cc4)cc3)C(=O)N[C@@H]([C@@H](C)O)C(=O)N3C[C@H](O)C[C@H]3C(=O)N[C@@H](CCc3ccc(O)cc3)C(=O)N[C@@H]([C@@H](C)O)C(=O)N2C1	ATCC 62376	MIC	50 µg/mL
CCC(=O)C1Sc2ccccc2N(C2CCCCCC2)C1=O	ATCC 14053	MIC	≥100 µg/mL
O=C(/C=C/c1ccccc1)c1ccc2sccc2c1O	-	MIC	25 µg/mL
CCCCCCCCCCCCOC[n+]1cccc(NCNc2ccc[n+](COCCCCCCCCCCCC)c2)c1	ATCC 10231	MBC	187 µM
Cc1c(O)cccc1C(=O)N[C@@H](CSc1ccccc1)[C@H](O)CN1C[C@H]2CCCC[C@H]2C[C@H]1C(=O)NC(C)(C)C	I70B	MIC	64 µg/mL
COc1ccc2c(c1)C(=O)/C(=C/c1ccc3c(c1)OCO3)CS2	-	MIC	50 µg/mL
CCCCCCOCn1c[n+](CNC(=O)c2cccnc2)c2ccccc21	ATCC 10231	MIC	1242 µM
Clc1ccc(CO/N=C2/c3ccccc3OCC2n2cnnc2)c(Cl)c1	ATCC 10231	MFC	>64 µg/mL
O=C1/C(=C/c2ccc(O)c(O)c2)CCc2ccccc21	-	MIC	50 µg/mL
O=[n+]1c(Sc2ccccc2)c(CBr)n([O-])c2ccccc21	Clinical isolate 5	MIC	31.25 µg/mL
CCCC(=O)/C=C1\Sc2ccccc2N1/C1=C/CCCCCCCCCC1	ATCC 14053	MIC	>100 µg/mL
O=C(OC[C@H]1CO[C@](Cn2ccnc2)(c2ccc(-c3ccccc3)cc2)O1)c1ccccc1	44 strains	EC50	16 µg/mL
CCCCCOc1ccc(-c2ccc(-c3ccc(C(=O)N[C@H]4CCCNC(=O)[C@@H]5C[C@H](NCc6ccccc6)CN5C(=O)[C@H]([C@@H](C)O)NC(=O)[C@H](CCc5ccc(O)cc5)NC(=O)[C@@H]5C[C@@H](O)CN5C(=O)[C@H]([C@@H](C)O)NC4=O)cc3)cc2)cc1	ATCC 62376	MIC	0.39 µg/mL
CO[C@H]1C[C@@H]2CC[C@@H](C)[C@@](O)(O2)C(=O)C(=O)N2CCCC[C@H]2C(=O)O[C@H]([C@H](C)C[C@@H]2CC[C@@H](C(=O)ON3CCOCC3)[C@H](OC)C2)CC(=O)[C@H](C)/C=C(\C)[C@@H](O)[C@@H](OC)C(=O)[C@H](C)C[C@H](C)CCCC/C=C/1C	442	MIC	>100 µg/mL
C[C@@H](O)[C@@H]1NC(=O)[C@H](CCc2ccc(O)cc2)NC(=O)[C@@H]2C[C@@H](O)CN2C(=O)[C@H]([C@@H](C)O)NC(=O)[C@@H](NCC2CCCCC2)CCCNC(=O)[C@@H]2C[C@H](N)CN2C1=O	ATCC 62376	MIC	0.2 µg/mL
CCOc1cc2c(cc1F)n([O-])c(C)c(S(=O)(=O)c1ccccc1)[n+]2=O	Clinical isolate 7	MIC	15.6 µg/mL
CCCCCCCCOc1ccc(N2CCN(c3ccc(C(=O)N[C@H]4CCCNC(=O)[C@@H]5C[C@H](N)CN5C(=O)[C@H](CCN)NC(=O)[C@H](CCc5ccc(O)cc5)NC(=O)[C@@H]5C[C@@H](O)CN5C(=O)[C@H]([C@@H](C)O)NC4=O)cc3)CC2)cc1	ATCC 62376	MIC	0.2 µg/mL
Clc1ccc(CO/N=C2/c3ccccc3OCC2n2cncn2)cc1	ATCC 10231	MFC	>64 µg/mL
C[C@H](n1cnc2cc(C(F)(F)F)ccc2c1=O)[C@](O)(Cn1cncn1)c1ccc(F)cc1F	406 strains	MIC	≤0.03 µg/mL
CN(CCCC#CC(C)(C)C)c1cccc2c1CCC(=O)N2	Clinical isolate 10	MIC	31.25 µg/mL
Cc1ccc(/C=C2\CSc3ccccc3C2=O)cc1	-	MIC	50 µg/mL
COc1ccc(/C=C/C(=O)c2ccc3c(ccn3C)c2O)cc1	-	MIC	>50 µg/mL
CCc1ccc(/C=C2\CCc3ccccc3C2=O)cc1	-	MIC	25 µg/mL
CCCCCCCOC[n+]1cccc(NCn2cnc3ccccc32)c1	ATCC 10231	MIC	2574 µM
CCC(C)n1ncn(-c2ccc(N3CCN(c4ccc(OC[C@H]5CO[C@](Cn6cncn6)(c6ccc(Cl)cc6Cl)O5)cc4)CC3)cc2)c1=O	B59630	MIC	>4 µg/mL
C[C@@H](n1cnc2cc(N3CCN(C)CC3)ccc2c1=O)[C@](O)(Cn1cncn1)c1ccc(F)cc1F	76 strains	MIC	10 µg/mL
OC[C@H]1CO[C@](Cn2ccnc2)(c2ccc(-c3ccccc3)cc2)O1	44 strains	Mean MIC	79.8 µg/mL
CC(C)C(=O)/C=C1/Sc2ccccc2N1Cc1ccccc1	ATCC 14053	MIC	≥100 µg/mL
Cc1ccc2ncn([C@H](C)[C@](O)(Cn3cncn3)c3ccc(F)cc3F)c(=O)c2c1	60 strains	MIC	0.07 µg/mL
CO[C@@H]1C[C@H](C[C@@H](C)[C@@H]2CC(=O)[C@H](C)/C=C(\C)[C@@H](O)[C@@H](OC)C(=O)[C@H](C)C[C@H](C)/C=C/C=C/C=C(\C)[C@@H](N(O)C(=O)N(C)C)C[C@@H]3CC[C@@H](C)[C@@](O)(O3)C(=O)C(=O)N3CCCC[C@H]3C(=O)O2)CC[C@H]1C(=O)ON(C)O	10231	MIC	100 µg/mL
CCOc1cc2c(cc1F)n([O-])c(C)c(Cl)[n+]2=O	Clinical isolate 6	MIC	15.6 µg/mL
Cc1cccc2c(=O)n([C@H](C)[C@](O)(Cn3cncn3)c3ccc(F)cc3F)cnc12	76 strains	MIC	20 µg/mL
CO[C@@H]1C[C@H](C[C@@H](C)[C@@H]2CC(=O)[C@H](C)/C=C(\C)[C@@H](O)[C@@H](OC)C(=O)[C@H](C)C[C@H](C)/C=C/C=C/C=C(\C)[C@@H](N(OC)C(=O)N(C)C)C[C@@H]3CC[C@@H](C)[C@@](O)(O3)C(=O)C(=O)N3CCCC[C@H]3C(=O)O2)CC[C@H]1C(=O)ON(C)O	62376	MIC	50 µg/mL
C[C@@H](N1CNc2cc(Cl)ccc2C1=O)[C@](O)(Cn1cncn1)c1ccc(F)cc1F	406 strains	MIC	≤0.03 µg/mL
CC(=O)N1CCN(c2ccc(OCC3COC(Cn4ccnc4)(c4ccc(-c5ccccc5)cc4)O3)cc2)CC1	44 strains	Mean MIC	53.9 µg/mL
C[C@@H](n1cnc2cc(NCc3ccccc3)ccc2c1=O)[C@](O)(Cn1cncn1)c1ccc(F)cc1F	406 strains	MIC	≤0.03 µg/mL
O=C(/C=C1\Sc2ccccc2N1C1CCCCCC1)c1ccccc1	ATCC 14053	MIC	50 µg/mL
C[C@@H](c1ncncc1F)[C@](O)(Cn1cncn1)c1ccc(F)cc1F	406 strains	MIC	≤0.03 µg/mL
O=C1/C(=C/c2ccc(Cl)cc2)CCc2ccccc21	-	MIC	12.5 µg/mL
COc1ccc(-c2cc(=O)c3ccc4c(ccn4C)c3o2)cc1	-	MIC	>50 µg/mL
CCCCCOc1ccc(-c2ccc(-c3ccc(C(=O)N[C@H]4CCCNC(=O)[C@@H]5C[C@H](N)CN5C(=O)[C@H]([C@@H](C)O)NC(=O)[C@H](COCc5ccccc5)NC(=O)[C@@H]5C[C@@H](O)CN5C(=O)[C@H]([C@@H](C)O)NC4=O)cc3)cc2)cc1	ATCC 38247	MIC	3.12 µg/mL
CO[C@@H]1C[C@H](C[C@@H](C)[C@@H]2CC(=O)[C@H](C)/C=C(\C)[C@@H](O)[C@@H](OC)C(=O)[C@H](C)C[C@H](C)/C=C/C=C/C=C(\C)[C@H](N(O)C(N)=O)C[C@@H]3CC[C@@H](C)[C@@](O)(O3)C(=O)C(=O)N3CCCC[C@H]3C(=O)O2)CC[C@H]1C(=O)ON(C)O	442	MIC	100 µg/mL
C[C@H]1[C@H](O)[C@@H](C)/C=C/C=C/C=C/C=C/C=C/C=C/C=C/[C@H](O[C@@H]2O[C@H](C)[C@@H](O)[C@H](N)[C@@H]2O)C[C@@H]2O[C@](O)(C[C@@H](O)C[C@@H](O)CC[C@H](O)[C@@H](O)C[C@@H](O)CC(=O)O[C@H]1C)C[C@H](O)[C@H]2C(=O)O	ATCC64546	MIC	0.25 µg/mL
COc1ccc(/C=C2\COc3ccc(OC)cc3C2=O)cc1	-	MIC	25 µg/mL
C[C@@H](n1cnc2cc(N(C)C)ccc2c1=O)[C@](O)(Cn1cncn1)c1ccc(F)cc1F	60 strains	MIC	0.31 µg/mL
COC1CC2CCC(C)C(O)(O2)C(=O)C(=O)N2CCCCC2C(=O)OC(C(C)CC2CCC(O)C(OC)C2)CC(=O)C(C)/C=C(\C)C(O)[C@@](OC)(N(O)C(=O)OCC(C)C)C(=O)C(C)CC(C)/C=C/C=C/C=C/1C	WILD TYPE	MIC	>100 µg/mL
CCCCCCOC[n+]1cccc(NCn2nnc3ccccc32)c1	ATCC 10231	MBC	>1332 µM
COc1ccc(-c2oc3c(ccc4sccc43)c(=O)c2O)cc1	-	MIC	>50 µg/mL
COc1ccc(/C=C2\COc3ccc(-c4ccccc4)cc3C2=O)cc1	-	MIC	25 µg/mL
O=C1CCC/C1=C1/Sc2ccccc2N1C1CCCCCC1	ATCC 10231	MIC	100 µg/mL
CC(=O)C1CCc2c(ccn2C)C1=O	-	MIC	50 µg/mL
Cc1ccc2c(c1)S/C(=C\C(=O)C(C)C)N2C1=CCCCCC1	ATCC 14053	MIC	≥100 µg/mL
C[C@H](n1cnc2cc(Cl)ccc2c1=O)[C@@](O)(Cn1cncn1)c1ccc(F)cc1F	60 strains	MIC	10 µg/mL

The last 7 rows once more:

smiles | strain | endpoint | value
CCCCCCOC[n+]1cccc(NCn2nnc3ccccc32)c1 | ATCC 10231 | MBC | >1332 µM
COc1ccc(-c2oc3c(ccc4sccc43)c(=O)c2O)cc1 | - | MIC | >50 µg/mL
COc1ccc(/C=C2\COc3ccc(-c4ccccc4)cc3C2=O)cc1 | - | MIC | 25 µg/mL
O=C1CCC/C1=C1/Sc2ccccc2N1C1CCCCCC1 | ATCC 10231 | MIC | 100 µg/mL
CC(=O)C1CCc2c(ccn2C)C1=O | - | MIC | 50 µg/mL
Cc1ccc2c(c1)S/C(=C\C(=O)C(C)C)N2C1=CCCCCC1 | ATCC 14053 | MIC | ≥100 µg/mL
C[C@H](n1cnc2cc(Cl)ccc2c1=O)[C@@](O)(Cn1cncn1)c1ccc(F)cc1F | 60 strains | MIC | 10 µg/mL